Measured values from several laboratories, pooled; numbers as filed in NIAID ChemDB.

Common to all: growth or infection tests; organism: Mycobacterium kansasii

MIC50, MIC90 and the like: level of inhibition, or share of isolates inhibited. An empty or dashed field is not shown. Neighbouring rows are from separate reports.

SMILES	strain or isolate	read by	conditions	read-out	value
O=C(Nc1ccc(Cl)c(Cl)c1)c1cc(Cl)ccc1OS(=O)(=O)c1ccccc1	6509/96		14 d	MIC	8 µM
Cc1ccc2oc(=S)n(-c3ccc(F)cc3)c(=S)c2c1	6509/96		21 d	MIC	8 µM
O=C(Nc1cccc(Cl)c1)c1cc(Cl)ccc1OS(=O)(=O)c1ccccc1	235/80		7 d	MIC	8 µM
O=c1oc2ccc(Br)cc2c(=S)n1-c1ccc(Cl)c(Cl)c1	My 235/80		21 d	MIC	8 µM
O=C(Oc1cc(Cl)ccc1C(=O)Nc1ccc(C(F)(F)F)cc1)c1cnccn1	6509/96		7 d	MIC	1 µM
CC(C)(C)c1ccc(NC(=O)NNC(=O)c2ccncc2)cc1	My 6509/96	broth dilution	14 d	MIC100	62.5 µM
O=c1oc2ccc(F)cc2c(=S)n1-c1ccc(Cl)cc1	6509/96		21 d	MIC	2 µM
O=C(Nc1cccc(C(F)(F)F)c1)c1cc(Cl)ccc1OS(=O)(=O)c1ccccc1	235/80		14 d	MIC	8 µM
O=C(NNC(=O)c1ccncc1)Nc1c(Cl)cc(Cl)cc1Cl	My 235/80	broth dilution	14 d	MIC100	>125 µM
O=C(Nc1cccc(F)c1)c1cc(Cl)ccc1OS(=O)(=O)c1ccccc1	6509/96			MIC	125 µM
O=C(NNC(=O)c1ccncc1)Nc1ccc(Br)c(F)c1	My 235/80	broth dilution	7 d	MIC100	125 µM
O=C(Nc1ccc(F)cc1)c1cc(Cl)ccc1OS(=O)(=O)c1ccccc1	6509/96		21 d	MIC	16 µM
NNC(=O)c1ccncc1	My 6509/96	broth dilution	14 d	MIC100	8 µM
Cc1ccc(-n2c(=S)oc3ccc(C)cc3c2=S)cc1	My 235/80		21 d	MIC	4 µM
O=C(Oc1cc(Cl)ccc1C(=O)Nc1ccc(Cl)c(Cl)c1)c1cnccn1	235/80		7 d	MIC	4 µM
Clc1ccc(Nc2nnc(-c3ccncc3)o2)cc1Cl	My 6509/96	broth dilution	21 d	MIC100	>125 µM
O=C(Oc1ccc(Cl)cc1C(=O)Nc1ccc(Cl)cc1)c1cnccn1	6509/96		7 d	MIC	1 µM
O=C(Nc1ccc(Br)cc1)c1ccc(Br)cc1OS(=O)(=O)c1ccccc1	235/80		7 d	MIC	8 µM
O=C(Oc1cc(Cl)ccc1C(=O)Nc1ccc(Br)cc1)c1cnccn1	235/80		7 d	MIC	4 µM
O=C(NNC(=O)c1ccncc1)Nc1ccc(Br)cc1F	My 6509/96	broth dilution	21 d	MIC100	>125 µM
NC(=O)c1cnccn1	6509/96		14 d	MIC	1000 µM
CCCCc1ccc(NC(=O)NNC(=O)c2ccncc2)cc1	My 6509/96	broth dilution	7 d	MIC100	32 µM
Cc1ccc(-n2c(=O)oc3ccc(F)cc3c2=S)cc1	My 235/80		14 d	MIC	1 µM
O=C(Oc1ccc(Cl)cc1C(=O)Nc1ccc(Br)cc1)c1cnccn1	235/80		14 d	MIC	2 µM
Fc1cc(Br)ccc1Nc1nnc(-c2ccncc2)o1	My 6509/96	broth dilution	21 d	MIC100	>125 µM
O=C(Oc1ccc(Cl)cc1C(=O)Nc1ccc(Cl)c(Cl)c1)c1cnccn1	235/80		7 d	MIC	2 µM
CCCCCc1ccc(NC(=O)NNC(=O)c2ccncc2)cc1	My 6509/96	broth dilution	14 d	MIC100	62.5 µM

Repeating the first 2 entries:

SMILES | strain or isolate | read by | conditions | read-out | value
O=C(Nc1ccc(Cl)c(Cl)c1)c1cc(Cl)ccc1OS(=O)(=O)c1ccccc1 | 6509/96 |  | 14 d | MIC | 8 µM
Cc1ccc2oc(=S)n(-c3ccc(F)cc3)c(=S)c2c1 | 6509/96 |  | 21 d | MIC | 8 µM